Results of unrelated studies side by side (data: NIAID ChemDB).

Common to all: growth or infection tests; organism: Mycobacterium tuberculosis

Rows are shuffled and stem from different studies. Inhibition is in % at the dose shown (toxicity tests: loss of growth or viability). MIC bound: limit read from a one-dose screen. MIC50, MIC90 and the like: level of inhibition, or share of isolates inhibited. ECn is the concentration giving n% inhibition of infection, replication or growth. Blank or dashed fields: not listed here.

compound,measure,setting,dose,changes,read by,strain or isolate,result
Cn1ccc2ncnc(Nc3ccc(Oc4ccc(C(F)(F)F)cc4)cc3)c21,MIC50,-,-,-,luminescence,H37Rv,15 µM
O=C(NCCO)N1c2ccccc2Sc2ccccc21,MIC,-,-,-,resazurin,18b,8 µg/mL
O=C(CSc1nnc(-c2ccccn2)s1)N/N=c1/scc(-c2ccc(Br)cc2)n1-c1ccccc1,MIC,-,-,-,-,Clinical isolate 180,40 µg/mL
FC(F)(F)c1cccc(Oc2ccc(CNc3ncnc4ccsc34)cc2)c1,MIC50,-,-,-,luminescence,H37Rv,>50 µM
O=C(CSc1nnc(-c2ccccn2)s1)N/N=c1/scc(-c2ccccc2)n1-c1cccc(Cl)c1,MIC,-,-,-,-,Clinical isolate 190,>80 µg/mL
Fc1ccc(CNc2ccc(Cl)nn2)cc1,MIC,-,-,-,resazurin,18b,8 µg/mL
CC(=O)c1c(C)n([O-])c2ccc(C)cc2[n+]1=O,EC50,inside macrophages,-,-,-,H37Rv,<2.5 µg/mL
C=CCN(CC=C)C1=CC(=O)C(=O)c2ccccc21,MIC bound,-,-,-,resazurin,H37Rv,>6.25 µg/mL
CCOC(=O)c1c(NC(=O)c2c(F)c(F)c(F)c(F)c2F)sc2c1CCOC2,MIC,-,-,-,resazurin,H37Rv,0.1 µM
O=C(N/N=C/c1ccc(N2CCOCC2)o1)c1ccncc1,MIC,-,-,-,resazurin,18b,0.25 µg/mL
Cc1ccccc1-c1cs/c(=N/NC(=O)CSc2nnc(-c3ccccn3)s2)n1-c1ccccc1,MIC,-,-,-,-,Clinical isolate 331,80 µg/mL
NCC[C@H](O)C(=O)N[C@@H]1C[C@H](N)[C@@H](O[C@H]2O[C@H](CN)[C@@H](O)[C@H](O)[C@H]2O)[C@H](O)[C@H]1O[C@H]1O[C@H](CO)[C@@H](O)[C@H](N)[C@H]1O,MIC,-,-,-,-,90-0145 (drug-susceptible),0.5 µg/mL
O=C(CSc1nnc(-c2ccccn2)s1)N/N=c1/scc(-c2ccccc2)n1-c1ccc([N+](=O)[O-])cc1,MIC,-,-,-,-,Clinical isolate 331,>80 µg/mL
CC(=O)c1c(C)n([O-])c2ccccc2[n+]1=O,EC50,inside macrophages,-,-,-,H37Rv,<2.72 µg/mL
Cc1nc2nc(N)nnc2c(=O)[nH]1,inhibition,-,12.5 µg/mL,-,BACTEC,H37Rv,-7%
CC(=O)c1c(CN2CCN(c3ccc([N+](=O)[O-])cc3)CC2)n([O-])c2cc(C)c(C)cc2[n+]1=O,EC50,-,-,-,BACTEC,H37Rv,>6.25 µg/mL
Fc1cc(Nc2ncnc3ccccc23)ccc1N1CCc2sccc2C1,MIC50,-,-,-,luminescence,H37Rv,>20 µM
NNC(=O)c1ccncc1,MIC,-,-,-,-,90-0233 (INH SM-RS),2.5 µg/mL
CCOC(=O)c1[nH]c2cccc3c2c1CC(Br)C3=O,inhibition,-,12.5 µg/mL,-,BACTEC,H37Rv,68%
Fc1ccc2c(Nc3ccc(OC4CCN(c5ccc(C(F)(F)F)cc5)CC4)cc3)ncnc2c1,MIC50,-,-,-,luminescence,H37Rv,>10 µM
CNC(=O)OCc1c(COC(=O)NC)c(C)n(-c2ccc(Cl)cc2)c1C,inhibition,-,12.5 µg/mL,-,BACTEC,H37Rv,23%
Fc1ccc2c(Nc3ccc(N4CCCCC4)cc3)ncnc2c1,MIC50,-,-,-,luminescence,H37Rv,>50 µM
NNC(=O)c1ccncc1,MIC50,-,-,-,-,27 strains (levofloxacin-susceptible),0.1 µg/mL
CC(C)(C)c1ccc(CCOc2ncnc3ccsc23)cc1,MIC50,-,-,-,luminescence,H37Rv,>50 µM
N[C@@H]1CN(c2c(F)cc3c(=O)c(C(=O)O)cn([C@@H]4C[C@@H]4F)c3c2Cl)CC12CC2,MIC50,-,-,-,-,22 strains (rifampin- isoniazid-resistant),0.39 µg/mL
Cc1cccc(-n2c(-c3ccccc3)cs/c2=N/NC(=O)CSc2nnc(-c3ccccn3)s2)c1,MIC,-,-,-,-,Clinical isolate 331,>80 µg/mL
CCOC(=O)c1c(NC(=O)C2C=C(C(F)(F)F)C=C2C(F)(F)F)sc2c1CCN(CC)C2,MIC,-,-,-,resazurin,H37Rv,>100 µg/mL
COc1cc([C@](O)(CCN(C)C)[C@@H](c2cc(-c3ccc(C)cc3)cnc2OC)c2cccc(OC)c2F)cc(OC)n1,MIC90,-,-,-,resazurin,H37Rv,1.99 µM
COc1ccc2c(c1)[n+](=O)c(C(=O)c1ccccc1)c(C)n2[O-],inhibition,-,6.25 µg/mL,-,BACTEC,H37Rv,32%
COc1cc([C@@](O)(CCN(C)C)[C@@H](c2cc(-c3ccccn3)cnc2OC)c2cccc(OC)c2F)cc(OC)n1,MIC90,-,-,-,resazurin,H37Rv,22.55 µM
COC(=O)C(=O)c1c(C(=O)OC)nc2nnc(N)n2c1-c1ccc(O)c(OC)c1,inhibition,-,6.25 µg/mL,-,resazurin,H37Rv,8%
COc1cc([C@](O)(CCN(C)C)[C@@H](c2cc(-c3ccccn3)cnc2OC)c2cccc(OC)c2F)cc(OC)n1,MIC90,-,-,-,resazurin,H37Rv,7.65 µM
CCOC(=O)c1cc(-c2ccccc2)sc1NC(=O)c1ccccc1,MIC,-,-,-,resazurin,H37Rv,>100 µg/mL
COc1cc(C(O)(CCN(C)C)C(c2cc(-c3ccc(Cl)cc3)cnc2OC)c2cccc(OC)c2F)cc(OC)n1,MIC90,-,-,-,resazurin,H37Rv,1.9 µM
Cc1nccn1C(/C(=N/O)c1ccccc1)c1ccccc1,inhibition,-,6.25 µg/mL,-,resazurin,H37Rv,2%
NNC(=O)c1ccncc1,MIC,-,-,-,-,Isolate UT2340 (katG S315T mutation),0.38 µg/mL
CCC1CC2CC3c4c(c5cc(OC)ccc5n4C)CCN(C2)C13,MIC bound,-,-,-,BACTEC,H37Rv,>12.5 µg/mL
CCOC(=O)c1c(N)sc2c1CCN(C(=O)OCc1ccccc1)C2,MIC,-,-,-,resazurin,H37Rv,>100 µg/mL
Cc1ccc(Oc2ccc(Nc3ncnc4cc(F)ccc34)cc2)cc1,MIC50,-,-,-,luminescence,H37Rv,>20 µM
Cc1nnsc1C(=O)NCc1c(F)cccc1Cl,MIC bound,-,-,-,resazurin,H37Rv,>6.25 µg/mL
O=C(CSc1nnc(-c2ccccn2)s1)N/N=c1/scc(-c2ccccc2)n1-c1ccccc1Br,MIC,-,-,-,-,Clinical isolate 190,>80 µg/mL
Fc1ccc(C2CCN(c3ccc(Nc4ncnc5ccccc45)cc3)CC2)cc1,MIC50,-,-,-,luminescence,H37Rv,>50 µM
COc1ccccc1N1CCN(Cc2c(C(C)=O)[n+](=O)c3ccccc3n2[O-])CC1,inhibition,-,6.25 µg/mL,-,BACTEC,H37Rv,0%
CC[C@H]1OC(=O)[C@H](C)[C@@H](O[C@H]2C[C@@](C)(OC)[C@@H](O)[C@H](C)O2)[C@H](C)[C@@H](O[C@@H]2O[C@H](C)C[C@H](N(C)C)[C@H]2O)[C@](C)(OC)C[C@@H](C)C(=O)[C@H](C)[C@@H](O)[C@]1(C)O,MIC90,-,-,-,-,27 strains (levofloxacin-susceptible),50 µg/mL
CCCCCCCCCCOCC(O)CNCCNCC(O)COCCCCCCCCCC,MIC bound,-,-,-,-,H37Rv,<6.25 µg/mL
CCOC(=O)C1C2C=CC3CC(=O)N(C(C)c4ccccc4)C31O2,MIC,-,-,-,resazurin,18b,>16 µg/mL
CCOC(=O)C1Cc2c(OC)cc(OC)cc2OC1=O,inhibition,-,12.5 µg/mL,-,BACTEC,H37Rv,2%
CCNC(=O)c1c(NC(=O)c2c(F)c(F)c(F)c(F)c2F)sc2c1CCN(CC)C2,EC50,-,-,rpoB S522L mutant,turbidity,H37Rv,3.3 µM
Cc1cccc(C)c1NC1=CC(=O)C(=O)c2ccccc21,inhibition,-,6.25 µg/mL,-,resazurin,H37Rv,99%
O=C(CSc1nnc(-c2ccccn2)s1)N/N=c1/scc(-c2ccccc2)n1-c1cccc(Br)c1,MIC,-,-,-,-,Clinical isolate 180,40 µg/mL
CCCCN(CC)C(=O)C(=O)C1C(=O)Nc2ccccc2S1=O,MIC bound,-,-,-,resazurin,H37Rv,>6.25 µg/mL
Cc1ccccc1-n1c(-c2ccccc2)cs/c1=N/NC(=O)CSc1nnc(-c2ccccn2)s1,MIC,-,-,-,-,H37Rv,>80 µg/mL
FC(F)(F)c1ccc(N2CCC3(CCN(c4ccc(Nc5ncnc6cc[nH]c56)cc4)CC3)CC2)cc1,MIC50,-,-,-,luminescence,H37Rv,>50 µM
Cc1ccc(C(=O)CN2C(=O)COc3ccccc3C2=O)cc1,MIC,-,-,-,resazurin,Clinical isolate,8 µg/mL
Fc1cc(CNc2ncnc3ccccc23)ccc1N1CCN(c2ccc(C(F)(F)F)cn2)CC1,MIC50,-,-,-,luminescence,H37Rv,>50 µM
CO[C@H]1/C=C/O[C@@]2(C)Oc3c(C)c(O)c4c(O)c(c(/C=N/N5CCN(C/C=C/c6ccccc6)CC5)c(O)c4c3C2=O)NC(=O)/C(C)=C\C=C\[C@H](C)[C@H](O)[C@@H](C)[C@@H](O)[C@@H](C)[C@H](OC(C)=O)[C@@H]1C,MIC,-,-,-,-,MTB37 (RIF-R),0.25 µg/mL
FC(F)(F)Oc1ccc(Oc2ccc(Nc3ncnc4cc(C(F)(F)F)ccc34)cc2)cc1,MIC50,-,-,-,luminescence,H37Rv,>50 µM
COc1cc([C@H]2Oc3cc([C@H]4Oc5cc(O)cc(O)c5C(=O)[C@@H]4O)ccc3O[C@@H]2CO)ccc1O,MIC bound,-,-,-,BACTEC,H37Rv,>12.5 µg/mL
COc1cc(C(O)(CCN(C)C)C(c2cc(-c3ccc(C#N)cc3)cnc2OC)c2cccc(OC)c2F)cc(OC)n1,MIC90,-,-,-,resazurin,H37Rv,6 µM
CC1CN(C(=O)/C=C/C(=O)OC2CCCCC2)CCN1C(=O)/C=C/C(=O)OC1CCCCC1,MIC,-,-,-,BACTEC,H37Rv,≥12.5 µg/mL
Cc1nc(Nc2ccccc2Oc2ccc(C(F)(F)F)cc2)c2ccc(F)cc2n1,MIC50,-,-,-,luminescence,H37Rv,>50 µM
CCn1cc(C(=O)O)c(=O)c2ccc(C)nc21,inhibition,-,12.5 µg/mL,-,BACTEC,H37Rv,-21%
CC1COc2c(N3CCN(C)CC3)c(F)cc3c(=O)c(C(=O)O)cn1c23,MIC,-,-,-,-,900233,0.5 µg/mL
FC(F)(F)c1ccccc1CCNc1ncnc2ccccc12,MIC50,-,-,-,luminescence,H37Rv,>50 µM
CC1=CC(O/C=C2\C(=O)OC3C=CCC23)OC1=O,MIC,-,-,-,BACTEC,H37Rv,≥12.5 µg/mL
CC(C)N=c1cc2n(-c3ccc(Cl)cc3)c3ccccc3nc-2cc1Nc1ccc(Cl)cc1,MIC,-,-,-,-,90-0201 (drug-susceptible),0.2 µg/mL
O=C(Nc1ccccc1-c1ccccc1)c1cnccn1,MIC bound,-,-,-,BACTEC,H37Rv,>12.5 µg/mL
FC(F)(F)c1cccc(Oc2ccc(Nc3ncnc4ccoc34)cc2)c1,MIC50,-,-,-,luminescence,H37Rv,>20 µM
CCOC(=O)c1c(NC(=O)c2c(F)c(F)c(F)c(F)c2F)sc2c1CCNC2=O,EC50,-,-,gyrA mutant (D94N),turbidity,H37Rv,1.2 µM
FC(F)(F)c1ccc(Oc2ccc(Nc3ncnc4cc[nH]c34)cc2)cc1,MIC50,-,-,-,luminescence,H37Rv,>20 µM
CCN1CCc2c(sc(NC(=O)c3c(F)c(F)c(F)c(F)c3F)c2C(=O)NC)C1,EC90,-,-,katG Y155 truncation mutant,turbidity,H37Rv,2.4 µM
CN(C)c1ccc(CNc2ncnc3ccccc23)cc1,MIC50,-,-,-,luminescence,H37Rv,>20 µM
NC[C@H]1O[C@H](O[C@H]2[C@H](O)[C@@H](O[C@H]3O[C@H](CO)[C@@H](O)[C@H](N)[C@H]3O)[C@H](N)C[C@@H]2N)[C@H](O)[C@@H](O)[C@@H]1O,MIC,-,-,-,-,90-0241 (drug-susceptible),2 µg/mL
Cc1ccc(NS(=O)(=O)c2cccc([N+](=O)[O-])c2)cc1Cl,MIC bound,-,-,-,BACTEC,H37Rv,>12.5 µg/mL
CC[C@@H](CO)NCCN[C@@H](CC)CO,MIC,-,-,-,-,90-0240 (drug-susceptible),1 µg/mL
Fc1ccc(Cl)c(-c2noc(-c3ccc4nncn4c3)n2)c1,MIC,-,-,-,resazurin,Clinical isolate,8 µg/mL
Nc1ccc(C(=O)N/C(=C\c2cccc([N+](=O)[O-])c2)c2nc3[nH]c(=S)[nH]c(=O)c3[nH]2)cc1,MIC bound,-,-,-,resazurin,H37Rv,>6.25 µg/mL
FC(F)(F)c1cccc(Oc2ccc(CNc3ncnc4ccsc34)cn2)c1,MIC50,-,-,-,luminescence,H37Rv,>40 µM
CC(=O)NNc1nc(C)c(C(=O)/C=C/c2ccc(/C=C/C(=O)c3sc(NNC(C)=O)nc3C)cc2)s1,MIC bound,-,-,-,resazurin,H37Rv,>6.25 µg/mL
Fc1ccc2c(Nc3ccc(N4CCC5(CC4)CCN(c4ccc(C(F)(F)F)cc4)CC5)cc3)ncnc2c1,MIC50,-,-,-,luminescence,H37Rv,>50 µM
N[C@@H]1CONC1=O,MIC,-,-,-,-,90-0241 (drug-susceptible),75 µg/mL

For reference, 6 entries again:

compound	measure	setting	dose	changes	read by	strain or isolate	result
O=C(Nc1ccccc1-c1ccccc1)c1cnccn1	MIC bound	-	-	-	BACTEC	H37Rv	>12.5 µg/mL
O=C(CSc1nnc(-c2ccccn2)s1)N/N=c1/scc(-c2ccccc2)n1-c1cccc(Cl)c1	MIC	-	-	-	-	Clinical isolate 190	>80 µg/mL
CCOC(=O)c1c(NC(=O)c2c(F)c(F)c(F)c(F)c2F)sc2c1CCNC2=O	EC50	-	-	gyrA mutant (D94N)	turbidity	H37Rv	1.2 µM
COc1cc([C@](O)(CCN(C)C)[C@@H](c2cc(-c3ccc(C)cc3)cnc2OC)c2cccc(OC)c2F)cc(OC)n1	MIC90	-	-	-	resazurin	H37Rv	1.99 µM
COc1cc([C@H]2Oc3cc([C@H]4Oc5cc(O)cc(O)c5C(=O)[C@@H]4O)ccc3O[C@@H]2CO)ccc1O	MIC bound	-	-	-	BACTEC	H37Rv	>12.5 µg/mL
Fc1ccc2c(Nc3ccc(N4CCCCC4)cc3)ncnc2c1	MIC50	-	-	-	luminescence	H37Rv	>50 µM